Compound potency records, mixed from different reports. Data source: NIAID ChemDB in PubChem.

Shared fields: cytotoxicity tests; read-out: CC50

An empty or dashed field is not shown. Rows are shuffled and stem from different studies. CCn: concentration that lowers growth or viability of the cells by n%.

{"compound": "CC(=O)N[C@@H](CSC(=O)[C@]1([C@@H](O)CC(C)C)NC(=O)[C@H](C)[C@@H]1O)C(=O)O", "cell line": "HELF", "result": "57 µM"}
{"compound": "COC(=O)N[C@H](C(=O)NC(C)(C)CCC[C@@H](CO)N(CCCF)S(=O)(=O)c1ccc(N)cc1)C(c1ccccc1)c1ccccc1", "cell line": "T lymphoid cells", "read by": "microscopy", "result": ">10 µM"}
{"compound": "C=C(C)C1CC[C@]2(C(=O)O)CC[C@@]3(C)[C@]4(C)CC[C@H]5C(C)(C)[C@@H](OC(=O)/C=C\\c6ccc(O)cc6)CC[C@]5(C)[C@H]4CC[C@]3(C)[C@@H]12", "cell line": "L6 cells", "read by": "MTT", "result": "5.6 µM"}
{"compound": "COC(=O)N[C@H](C(=O)N[C@H](CCC[C@@H](CO)N(CC(C)C)S(=O)(=O)c1ccc(CO)cc1)C1CC1)C(c1ccccc1)c1ccccc1", "cell line": "T lymphoid cells", "read by": "microscopy", "result": ">10 µM"}
{"compound": "O=C1O[C@@H](CNS(=O)(=O)c2ccc(F)cc2)CN1c1ccc(N2CCOCC2)c(F)c1", "cell line": "Human foreskin fibroblasts", "read by": "MTT", "result": ">100 µg/mL"}
{"compound": "COc1cc2c(NC3CCN(C)CC3)nc(N3CCCN(C)CC3)nc2cc1OCc1ccccc1", "cell line": "JEG-3", "read by": "fluorescence", "result": "2.2 µM"}
{"compound": "Nc1nc2c(ncn2COC(CO)CO)c(=O)[nH]1", "cell line": "MRS-5", "result": ">100 µg/mL"}
{"compound": "Nc1nc(NC2CC2)c2ncn(/C=C3/C[C@@H]3CO)c2n1", "cell line": "MEF", "result": ">367 µM"}
{"compound": "COC1=CC(=O)c2c(O)c(C)c(CC(C)=O)c(O)c2C1=O", "cell line": "SupT1", "read by": "MTT", "result": "2.7 µg/mL"}
{"compound": "CCNC(=O)c1ncn(-c2ncc(OC)c3c(C(=O)C(=O)N4CCN(C(=O)c5ccccc5)CC4)c[nH]c23)n1", "cell line": "HeLa", "read by": "trypan blue", "result": ">100 µM"}
{"compound": "CCOC(=O)CCCCCOc1cccc(CN(C(=O)c2ccc(-c3cccc(C(C)=O)c3)cc2)C(C)C)c1", "cell line": "BJ", "result": ">20 µM"}
{"compound": "CN[C@H](C(=O)NC(C)(C)CCC[C@@H](CO)N(C(C)C)S(=O)(=O)c1ccc(N)cc1)C(c1ccccc1)c1ccccc1", "cell line": "T lymphoid cells", "read by": "microscopy", "result": ">10 µM"}
{"compound": "CCN(CC)C(=O)OCC1CN(Cc2ccccc2)CCN1C(=O)c1cc(OC)c(OC)c(OC)c1", "cell line": "MDM", "read by": "neutral red", "result": ">100 µM"}
{"compound": "C[C@@H]1CN(C(=O)C(=O)c2c[nH]c3c(-c4ncco4)ccnc23)CCN1C(=O)c1ccccc1", "cell line": "HeLa", "read by": "trypan blue", "result": ">100 µM"}
{"compound": "COC(=O)N[C@H](C(=O)NC1(CCCC(CO)N(CCC(C)C)S(=O)(=O)c2ccc(N)cc2)CCC1)C(c1ccccc1)c1ccccc1", "cell line": "T lymphoid cells", "read by": "microscopy", "result": ">10 µM"}
{"compound": "CCOC(=O)CCCCCOc1cccc(CN(C(=O)c2ccc(-c3ccc(C(C)=O)s3)cc2)C(C)C)c1", "cell line": "HEK 293", "result": ">20 µM"}
{"compound": "C=C(C)[C@@H]1CC[C@]2(C(N)=O)CC[C@@]3(C)C(CCC4[C@@]5(C)CC/C(=N\\O)C(C)(C)C5CC[C@]43C)C12", "cell line": "MOLT-4/8", "read by": "MTT", "result": "1660 µM"}
{"compound": "Cc1cc(Cn2cc(CNC(=O)[C@]34CCC(C)(C)CC3C3=CCC5[C@@]6(C)CC[C@H](O)C(C)(C)C6CC[C@@]5(C)[C@]3(C)C[C@H]4O)nn2)c(C)cc1Cn1cc(CNC(=O)[C@]23CCC(C)(C)CC2C2=CCC4[C@@]5(C)CC[C@H](O)C(C)(C)C5CC[C@@]4(C)[C@]2(C)C[C@H]3O)nn1", "cell line": "293T", "read by": "resazurin", "result": ">100 µM"}
{"compound": "CCOC(=O)c1ccc(-c2ccc([N+](=O)[O-])cc2)nc1C", "cell line": "L6 cells", "read by": "MTT", "result": "27 µM"}
{"compound": "CCOC(=O)CCCCCOc1cccc(CN(C(=O)c2ccc(-c3cccc(Br)c3)cc2)C(C)C)c1", "cell line": "HepG2", "result": ">20 µM"}
{"compound": "C/C(=N\\N=C(N)N)c1cc(NC(=O)CCCCCCCCC(=O)Nc2cc(/C(C)=N/N=C(N)N)cc(/C(C)=N/N=C(N)N)c2)cc(/C(C)=N/N=C(N)N)c1", "cell line": "PM1", "read by": "MTT", "result": "2 µM"}
{"compound": "CC1(C)C2CC=C3C(CC[C@@]4(C)C5C[C@](C)(C(=O)O)CC[C@]5(C)CC[C@]34C)[C@@]2(C)CCC1(O)O", "cell line": "H522-TI", "result": ">20 µM"}
{"compound": "COc1ncc(OC)c2c(C(=O)C(=O)N3CCN(C(=O)c4ccccc4)C[C@H]3C)c[nH]c12", "cell line": "HeLa", "read by": "trypan blue", "result": ">100 µM"}
{"compound": "CC1(C)CC[C@@]2(C(=O)NCc3cn(CCOCCn4cc(CNC(=O)[C@]56CCC(C)(C)CC5C5=CCC7[C@@]8(C)CC[C@H](O)C(C)(C)C8CC[C@@]7(C)[C@]5(C)C[C@H]6O)nn4)nn3)C(C1)C1=CCC3[C@@]4(C)CC[C@H](O)C(C)(C)C4CC[C@@]3(C)[C@]1(C)C[C@H]2O", "cell line": "293T", "read by": "resazurin", "result": ">100 µM"}
{"compound": "CCN(CC)C(=O)OCC1CN(C(=O)c2cc(OC)c(OC)c(OC)c2)CCN1C(c1ccccc1)c1ccccc1", "cell line": "MDM", "read by": "neutral red", "result": "≥100 µM"}
{"compound": "COC1=CC(=O)c2c(O)c3c(c(O)c2C1=O)CC(C)(O)OC3", "cell line": "SupT1", "read by": "MTT", "result": "5.1 µg/mL"}
{"compound": "CCOC(=O)C1=C(CN2CC(F)(F)[C@H]3[C@@H]2CCN3C[C@@](C)(O)C(=O)O)NC(c2nc(C)cs2)=N[C@H]1c1cccc(F)c1C", "cell line": "HepG2.2.15", "read by": "WST / absorbance", "result": "25 µM"}
{"compound": "CCN(CC)C(=O)OCC1CN(C(=O)c2cc(OC)c(OC)c(OC)c2)CCN1Cc1ccccc1", "cell line": "MDM", "read by": "neutral red", "result": ">100 µM"}
{"compound": "CC(=O)Nc1cn([C@H]2C[C@H](OC(C)=O)[C@@H](COC(C)=O)O2)c(=O)[nH]c1=O", "cell line": "GMK", "result": "400 µg/mL"}
{"compound": "Nc1nc2c(ncn2CC[C@@H](CO)OCP(=O)(O)O)c(=O)[nH]1", "cell line": "MRS-5", "result": "10 µg/mL"}
{"compound": "CCN(CC)C(=O)OCC1CN(C(c2ccccc2)c2ccccn2)CCN1C(=O)c1cc(OC)c(OC)c(OC)c1", "cell line": "MDM", "read by": "neutral red", "result": "≥100 µM"}
{"compound": "CCOC(=O)C1=C(CN2CC(F)(F)[C@@H]3[C@H]2CON3CC(O)(CC)C(=O)O)NC(c2nccs2)=N[C@H]1c1cccc(F)c1C", "cell line": "HepG2.2.15", "read by": "WST / absorbance", "result": ">100 µM"}
{"compound": "CCOC(=O)CCCCCOc1cccc(C=O)c1", "cell line": "RAJI", "result": ">20 µM"}
{"compound": "COc1cc(NC(=O)Cc2cn(OC)c3ccccc23)cc(OC)c1", "cell line": "HEK293T", "read by": "luminescence", "result": ">30 µM"}
{"compound": "CN[C@H](C(=O)N[C@H](CCC[C@@H](CO)N(CCC(C)C)S(=O)(=O)c1ccc(CO)cc1)C(C)C)C(c1ccccc1)c1ccccc1", "cell line": "T lymphoid cells", "read by": "microscopy", "result": ">10 µM"}
{"compound": "C=C1CC[C@H]2C(C)(C)CCC[C@]2(C)[C@H]1CCC1=CC(=O)OC1", "cell line": "1A2", "read by": "XTT", "result": "368.3 µM"}
{"compound": "CCCN(Cc1cccc(OCCCCCC(=O)OCC)c1)C(=O)c1ccc(Br)cc1", "cell line": "BJ", "result": ">20 µM"}
{"compound": "COC(=O)N[C@H](C(=O)N[C@@H](C)CCC[C@@H](CO)N(C)S(=O)(=O)c1ccc(CO)cc1)C(c1ccccc1)c1ccccc1", "cell line": "T lymphoid cells", "read by": "microscopy", "result": ">10 µM"}
{"compound": "CCCSc1nc(N)nc2c1ncn2/C=C1/C[C@@H]1CO", "cell line": "MEF", "result": ">343 µM"}
{"compound": "COc1cc(O)c2c(c1)C(=O)C(CC(C)=O)=C(C)C2=O", "cell line": "MDA-MB-231", "read by": "MTT", "result": "95.6 µg/mL"}
{"compound": "CCOC(=O)C1=C(CN2CC(F)(F)[C@H]3[C@@H]2CCN3C[C@@](C)(F)C(=O)O)NC(c2nc(C)cs2)=N[C@H]1c1cccc(F)c1C", "cell line": "HepG2.2.15", "read by": "WST / absorbance", "result": "14.7 µM"}
{"compound": "COc1cc2c(cc1OC)C(C)=NCC2", "cell line": "HEK 293", "result": "<7.5 µM"}
{"compound": "COC(=O)N[C@H](C(=O)N[C@H](CCC[C@@H](CO)N(CCC(C)C)S(=O)(=O)c1ccc(CO)cc1)C1CC1)C(c1ccccc1)c1ccccc1", "cell line": "T lymphoid cells", "read by": "microscopy", "result": ">10 µM"}
{"compound": "CCOC(=O)C1=C(CN2CC(F)(F)[C@H]3[C@@H]2CCN3C[C@H](O)C(C)(C)C(=O)O)NC(c2nccs2)=N[C@@H]1c1cccc(F)c1F", "cell line": "HepG2.2.15", "read by": "WST / absorbance", "result": ">25 µM"}
{"compound": "O=c1[nH]c(=O)n([C@H]2C[C@H](O)[C@@H](CO)O2)cc1/C=C/Br", "cell line": "HEL 299", "result": ">200 µM"}
{"compound": "COC(=O)C1=C(CN2CC(F)(F)[C@@H]3[C@H]2CON3C[C@H](OC)C(C)(C)C(=O)O)NC(c2nc(C)cs2)=N[C@H]1c1ccc(F)c(F)c1C", "cell line": "HepG2.2.15", "read by": "WST / absorbance", "result": ">50 µM"}
{"compound": "COc1cc(CC[C@H](C[C@@H](CCc2cc(OC)c(OC)c(OC)c2)OC(C)=O)OC(C)=O)cc(OC)c1OC", "cell line": "1A2", "read by": "XTT", "result": "119.6 µM"}
{"compound": "CCN(CC)C(=O)OCC1CN(C(=S)c2cc(OC)c(OC)c(OC)c2)CCN1C(=S)c1cc(OC)c(OC)c(OC)c1", "cell line": "MDM", "read by": "neutral red", "result": "≥100 µM"}
{"compound": "CCN1C(N2CCN(c3ccc(N4C[C@H](CNC(C)=O)OC4=O)cc3F)CC2)=NS(=O)(=O)c2ccccc21", "cell line": "Human foreskin fibroblasts", "read by": "MTT", "result": ">50 µg/mL"}
{"compound": "C=C(C)C1CC[C@]2(C(=O)O)CC[C@@]3(C)[C@]4(C)CC[C@H]5C(C)(C)[C@@H](O)CC[C@]5(C)[C@H]4CC[C@]3(C)[C@@H]12", "cell line": "L6", "read by": "MTT", "result": "10.6 µM"}
{"compound": "COc1cc(CC[C@H](C[C@@H](CCc2cc(OC)c(OC)c(OC)c2)OC(=O)c2ccc(Br)cc2)OC(=O)c2ccc(Br)cc2)cc(OC)c1OC", "cell line": "1A2", "read by": "XTT", "result": ">301 µM"}
{"compound": "Cc1ncnn1-c1ncc(F)c2c(C(=O)C(=O)N3CCN(C(=O)c4ccccc4)CC3)c[nH]c12", "cell line": "HeLa", "read by": "trypan blue", "result": ">100 µM"}
{"compound": "COc1cc(CC[C@@H](O)C[C@H](O)CCc2cc(OC)c(OC)c(OC)c2)cc(OC)c1OC", "cell line": "1A2", "read by": "XTT", "result": ">269.1 µM"}
{"compound": "CCCCOc1c(OC)cc(C(=O)N2CCN(Cc3ccccc3)CC2COC(=O)N(CC)CC)cc1OC", "cell line": "MDM", "read by": "neutral red", "result": "≥20 µM"}

4 of the rows above, restated:

compound	cell line	read by	result
CCN(CC)C(=O)OCC1CN(C(=S)c2cc(OC)c(OC)c(OC)c2)CCN1C(=S)c1cc(OC)c(OC)c(OC)c1	MDM	neutral red	≥100 µM
COc1cc(CC[C@H](C[C@@H](CCc2cc(OC)c(OC)c(OC)c2)OC(=O)c2ccc(Br)cc2)OC(=O)c2ccc(Br)cc2)cc(OC)c1OC	1A2	XTT	>301 µM
C=C(C)C1CC[C@]2(C(=O)O)CC[C@@]3(C)[C@]4(C)CC[C@H]5C(C)(C)[C@@H](O)CC[C@]5(C)[C@H]4CC[C@]3(C)[C@@H]12	L6	MTT	10.6 µM
CCOC(=O)CCCCCOc1cccc(CN(C(=O)c2ccc(-c3cccc(Br)c3)cc2)C(C)C)c1	HepG2		>20 µM